Data taken from PMC12066977, “Alkyl Tail Variation on Chalcone‐Based Quaternary Pyridinium Salts as Rule‐of‐Thumb for Antimicrobial Activity” (Archiv Der Pharmazie, 2025).

Tests used:
C. albicans ATCC 10231 = experiment: Broth microdilution antimicrobial assay (MIC, IC50); format: cell-based, Candida albicans; details: Selectivity index SI = CC50 (Vero cells)/IC50
Procedure: (§1) Reference strains of Staphylococcus aureus (ATCC 25923), Escherichia coli (ATCC 25922), and Candida albicans (ATCC 10231) were used in this study as microbial models. These strains were purchased from the American Type Culture Collection (ATCC); bacterial cultures were routinely grown on 5% blood agar plate, while fungal cultures on Sabouraud Dextrose Agar (Biolife […]., Milan, Italy). […] In short, microbial inocula were prepared at 0.5 McFarland in PBS and, subsequently, bacterial suspensions were diluted 1:200 in Mueller-Hinton broth (Sigma-Aldrich, St. Louis, MO, USA), while fungal inoculum was diluted 1:20 in RPMI-1640 medium (Gibco®, ThermoFisher Scientific Inc., Waltham, MA, USA), containing glucose 2%, 0.3% levo-glutamine buffered to pH 7.0 with 0.165 M 3-(N-morpholino) propanesulfonic acid (MOPS). A total of 100 μL of these microbial suspensions was introduced into a 96-well microplate and incubated with 100 μL of the compounds, two-fold serially diluted in the range of 100-0.19 μM. Positive controls (microbial suspensions in regular media), negative controls (only compounds), and solvent controls (microbial suspensions incubated with DMSO dilutions) were included in the tests. The plate was incubated at 37°C for 24 h, and subsequently the optical density at 630 nm (OD630nm) was spectrophotometrically measured. Experiments were carried out in triplicate in three biological replicates. […] Statistical analysis was carried out by using GraphPad Prism version 9.4.1 for Windows (GraphPad Software, San Diego, California USA, www.graphpad.com). ^a MIC (Minimum Inhibitory Concentration) were determined in vitro by means of a standardized microdilution assay, in compliance with the Clinical and laboratory Standard Institute (CLSI) guidelines (30). Microbial suspensions were prepared at 0.5 McFarland in PBS, then diluted in the media and transferred in a 96 micro-well plate together with the serially 2-fold dilutions of the compounds. After 24h of incubation at 37°C, microbial growths were evaluated by measuring the Optical Density at 600 nm, then percentage values were obtained as relative to the positive controls (microbial suspensions in regular media).

E. coli ATCC 25922 = experiment: as above; format: cell-based, Escherichia coli; details: Selectivity index SI = CC50 (Vero cells)/IC50
Procedure: as §1

S. aureus ATCC 25923 = experiment: as above; format: cell-based, Staphylococcus aureus; details: Selectivity index SI = CC50 (Vero cells)/IC50
Procedure: as §1

[1] = tested on: S. aureus ATCC 25923, E. coli ATCC 25922, C. albicans ATCC 10231; experiment: Broth microdilution antimicrobial assay, statements pooled over the three strains; format: cell-based; details: SI = CC50 (Vero cells)/IC50; stated over S. aureus, E. coli and C. albicans together
Procedure: The antimicrobial activity of the compounds was assessed by determining the Minimum Inhibitory Concentration (MIC) by a well‐established broth microdilution procedure in microtiter plates and in compliance with the Clinical and Laboratory Standards Institute (CLSI) guidelines.
In short, microbial inocula were prepared at 0.5 McFarland in PBS and, subsequently, bacterial suspensions were diluted 1:200 in Mueller–Hinton broth (Sigma‐Aldrich, St. Louis, MO, USA), while fungal inoculum was diluted 1:20 in RPMI‐1640 medium (Gibco®, ThermoFisher Scientific Inc., Waltham, MA, USA), containing glucose 2%, 0.3% levo‐glutamine buffered to pH 7.0 with 0.165 M 3‐(N‐morpholino) propanesulfonic acid (MOPS). A total of 100 µL of these microbial suspensions was introduced into a 96‐well microplate and incubated with 100 µL of the compounds, two‐fold serially diluted in the range of 100–0.19 µM. Positive controls (microbial suspensions in regular media), negative controls (only compounds), and solvent controls (microbial suspensions incubated with DMSO dilutions) were included in the tests. The plate was incubated at 37°C for 24 h, and subsequently the optical density at 630 nm (OD630nm) was spectrophotometrically measured. Experiments were carried out in triplicate in three biological replicates. […]

Row | Compound | SI Candida albicans (C. albicans ATCC 10231) | SI Escherichia coli (E. coli ATCC 25922) | SI Staphylococcus aureus (S. aureus ATCC 25923) | SI values for the different species [1]
1 | C#CCOc1ccc(C(=O)/C=C/c2cccnc2)c(OCC#C)c1 [Compound 1] | < 1 | < 1 | < 1 | –
2 | C#CCOc1ccc(C(=O)/C=C/c2ccc[n+](CCCCCC)c2)c(OCC#C)c1.[Br-] [Compound 2, (E)‐3‐{3‐[2,4‐Bis(prop‐2‐yn‐1‐yloxy)phenyl]‐3‐oxoprop‐1‐en‐1‐yl}‐1‐hexylpyridin‐1‐ium bromide] | > 1 | > 1 | > 2 | –
3 | C#CCOc1ccc(C(=O)/C=C/c2ccc[n+](CCCCCCCC)c2)c(OCC#C)c1.[Br-] [Compound 3, (E)‐3‐{3‐[2,4‐Bis(prop‐2‐yn‐1‐yloxy)phenyl]‐3‐oxoprop‐1‐en‐1‐yl}‐1‐octylpyridin‐1‐ium bromide] | 1.5 | 4.3 | 17.7 | –
4 | C#CCOc1ccc(C(=O)/C=C/c2ccc[n+](CCCCCCCCCC)c2)c(OCC#C)c1.[Br-] [Compound 4, (E)‐3‐{3‐[2,4‐Bis(prop‐2‐yn‐1‐yloxy)phenyl]‐3‐oxoprop‐1‐en‐1‐yl}‐1‐decylpyridin‐1‐ium bromide] | 3.0 | 2.9 | 15.3 | 2.4 to 15.3
5 | C#CCOc1ccc(C(=O)/C=C/c2ccc[n+](CCCCCCCCCCCC)c2)c(OCC#C)c1.[Br-] [Compound 5, (E)‐3‐{3‐[2,4‐Bis(prop‐2‐yn‐1‐yloxy)phenyl]‐3‐oxoprop‐1‐en‐1‐yl}‐1‐dodecylpyridin‐1‐ium bromide] | 8.9 | 2.4 | 8.6 | 2.4 to 15.3
6 | C#CCOc1ccc(C(=O)/C=C/c2ccc[n+](CCCCCCCCCCCCCC)c2)c(OCC#C)c1.[Br-] [Compound 6, (E)‐3‐{3‐[2,4‐Bis(prop‐2‐yn‐1‐yloxy)phenyl]‐3‐oxoprop‐1‐en‐1‐yl}‐1‐tetradecylpyridin‐1‐ium bromide] | 4.7 | – | 4.7 | –
7 | C#CCOc1ccc(C(=O)/C=C/c2ccc[n+](CCCCCCCCCCCCCCCC)c2)c(OCC#C)c1 [Compound 7, (E)‐3‐{3‐[2,4‐Bis(prop‐2‐yn‐1‐yloxy)phenyl]‐3‐oxoprop‐1‐en‐1‐yl}‐1‐hexadecylpyridin‐1‐ium] | < 1 | < 1 | 1.3 | –
8 | C#CCOc1ccc(C(=O)/C=C/c2ccc[n+](CCCCCCCCCCCCCCCCCC)c2)c(OCC#C)c1.[Br-] [Compound 8, (E)‐3‐{3‐[2,4‐Bis(prop‐2‐yn‐1‐yloxy)phenyl]‐3‐oxoprop‐1‐en‐1‐yl}‐1‐octadecylpyridin‐1‐ium bromide] | < 1 | < 1 | < 1 | –
9 | Br.C#CCOc1ccc(C(=O)/C=C/c2cccnc2)c(OCC#C)c1 [Compound 9, (E)‐3‐{3‐[2,4‐Bis(prop‐2‐yn‐1‐yloxy)phenyl]‐3‐oxoprop‐1‐en‐1‐yl}pyridin‐1‐ium bromide] | < 1 | < 1 | < 1 | –
10 | C#CCOc1ccc(C(=O)/C=C/c2ccc[n+](CCCCCC[n+]3cccc(/C=C/C(=O)c4ccc(OCC#C)cc4OCC#C)c3)c2)c(OCC#C)c1.[Br-].[Br-] [Compound 10, 1,1′‐(Hexane‐1,6‐diyl)bis{3‐[(E)‐3‐(2,4‐bis‐prop‐2‐yn‐1‐yloxyphenyl)‐3‐oxoprop‐1‐en‐1‐yl]pyridin‐1‐ium} bromide] | > 1 | > 2 | > 2 | –
